# Assay results published in paper PMC8262862.
# Molecular target: H4 HA
# Assay: ELISA
substance,measurement,value
FI6v3,Kd,0.61 nM
